Measured values from several laboratories, pooled; numbers as filed in NIAID ChemDB.

All rows: growth or infection tests; species: Hepatitis C virus; method: replicon; measure: EC50

Blank or dashed fields: not listed here.

smiles,cell line,strain,result
Nc1ncnc2c1c(-c1cccs1)cn2[C@H]1O[C@H](CO)[C@@H](O)C1(F)F,HCV replicon,1a,1.52 µM
CNC(=O)c1c(-c2ccc(F)cc2)oc2cc(-c3ccoc3)c(OC(C)C)cc12,Huh7,-,<10 µM
Cc1ccc(C(=O)NCc2ccccc2)cc1-c1ccc(C(=O)Nc2ccc(CN3CCS(=O)(=O)CC3)cc2)cc1,-,1b,0.8 µM
Nc1ncnc2c1c(-c1ccsc1)cn2[C@H]1O[C@H](CO)[C@@H](O)C1(F)F,HCV replicon,1b,0.91 µM
C=CC[C@](C)(NC(=O)[C@H]1C[C@@H](Oc2ccnc3c(F)cccc23)CN1C(=O)[C@@H](NC(=O)OC(C)(C)C)C(C)(C)C)C(=O)NS(=O)(=O)C1CC1,Huh7,BMS,<0.1 µM
CNC(=O)c1c(-c2ccc(F)cc2)oc2cc(NS(C)(=O)=O)c(C3CC3)cc12,Huh7,-,<1 µM
C=CC1CC1(NC(=O)[C@@H]1C[C@@H](OC(=O)Nc2cccc(OC)c2)CN1C(=O)[C@@H](NC(=O)OC(C)(C)C)C(C)(C)C)C(=O)NS(=O)(=O)C1CC1,Huh7,1b,1–10 µM
Cc1ccc(C(=O)NC2CC2)cc1-c1ccc(C(=O)Nc2ccc(CN3CCS(=O)(=O)CC3)cc2)cc1,-,1b,2.6 µM
C=CC1CC1(NC(=O)[C@@H]1C[C@@H](OC(=O)Nc2cc(C#N)ccc2-n2cccn2)CN1C(=O)[C@@H](NC(=O)OC(C)(C)C)C(C)(C)C)C(=O)NS(=O)(=O)C1CC1,Huh7,1b,<0.1 µM
C#Cc1cn([C@@H]2O[C@H](CO)[C@@H](O)C2(F)F)c2ncnc(N)c12,HCV replicon,1a,0.44 µM
C=CC1CC1(NC(=O)[C@@H]1C[C@@H](OC(=O)Nc2ccccc2CCC)CN1C(=O)[C@@H](NC(=O)OC(C)(C)C)C(C)(C)C)C(=O)NS(=O)(=O)C1CC1,Huh7,1b,1–10 µM
C[C@@]1(F)[C@H](O)[C@@H](CO)O[C@@]1(CN)n1ccc(=O)[nH]c1=O,Huh7,1a,>89 µM
Nc1ncnc2c1c(-c1ccccc1)cn2[C@@H]1O[C@H](CO)[C@@H](O)C1(F)F,HCV replicon,1a,8.97 µM
C=C[C@@H]1C[C@]1(NC(=O)[C@@H]1C[C@@H](S(=O)(=O)Cc2ccc3ccccc3c2)CN1C(=O)[C@@H](NC(=O)OC(C)(C)C)C(C)(C)C)C(=O)NS(C)(=O)=O,Huh7,BMS,1–10 µM
CNC(=O)c1c(-c2ccc(F)cc2)oc2cc(N3CCOCC3)c(OCC3CC3)cc12,Huh7,-,<1 µM
C=C[C@@H]1C[C@]1(NC(=O)[C@@H]1C[C@@H](Oc2cc3ccc(OC)cc3c(-c3csc(N(C)C)n3)n2)CN1C(=O)[C@@H](NC(=O)OC(C)(C)C)C(C)(C)C)C(=O)NS(=O)(=O)C1CC1,Huh7,BMS,<0.1 µM
C=CC1CC1(NC(=O)[C@@H]1C[C@@H](OC(=O)Nc2cccc(C(=O)OC)c2)CN1C(=O)[C@@H](NC(=O)OC(C)(C)C)C(C)(C)C)C(=O)NS(=O)(=O)C1CC1,Huh7,1b,1–10 µM
CNC(=O)c1c(-c2ccc(F)cc2)oc2cc(N(CS(C)(=O)=O)OC)c(OCc3cccc(C#N)c3)cc12,Huh7,-,<1 µM
Nc1ncnc2c1c(-c1ccco1)cn2[C@@H]1O[C@H](CO)[C@@H](O)[C@H]1F,HCV replicon,1a,1.98 µM
CN(C)CCCOc1ccc(NC(=O)C2CC2)cc1-c1ccc(C(=O)Nc2ccc(CN3CCS(=O)(=O)CC3)cc2)cc1,-,1b,8.35 µM
CNC(=O)c1c(-c2ccc(F)c(F)c2)oc2ccc(OC)cc12,Huh7,-,<10 µM
Cc1ccc(C(=O)Nc2ccc(N3CCOCC3)cc2)cc1-c1ccc(C(=O)Nc2ccc(CN3CCN(S(C)(=O)=O)CC3)cc2)cc1,-,1b,0.26 µM
C=C[C@@H]1C[C@]1(NC(=O)[C@@H]1C[C@@H](Oc2cc(-n3cccn3)cc3ccncc23)CN1C(=O)[C@@H](NC(=O)OC(C)(C)C)C(C)(C)C)C(=O)NS(=O)(=O)C1CC1,Huh7,BMS,0.1–1 µM
Nc1ncnc2c1c(I)cn2[C@@H]1O[C@H](CO)[C@@H](O)C1(F)F,HCV replicon,1a,1.1 µM
C=CC[C@](C)(NC(=O)[C@H]1C[C@@H](Oc2nc3ccccc3[nH]c2=O)CN1C(=O)[C@@H](NC(=O)OC(C)(C)C)C(C)(C)C)C(=O)NS(=O)(=O)C1CC1,Huh7,BMS,10–100 µM
CNC(=O)c1c(-c2ccc(F)cc2)oc2cc(N(Cc3ccc(C(=O)O)cc3)S(C)(=O)=O)c(OC(C)C)cc12,Huh7,-,<1 µM
Nc1ncnc2c1c(-c1ccccc1)cn2[C@H]1O[C@H](CO)[C@@H](O)C1(F)F,HCV replicon,1b,2.64 µM
C=C[C@@H]1C[C@]1(NC(=O)[C@@H]1C[C@@H](Nc2nccc3ccccc23)CN1C(=O)[C@@H](NC(=O)OC)C(C)(C)C)C(=O)NS(=O)(=O)C1CC1,Huh7,BMS,0.1–1 µM
CCNc1cc2oc(-c3ccc(F)cc3)c(C(=O)NC)c2c(Cl)c1O,Huh7,-,>100 µM
C=C[C@@H]1C[C@]1(NC(=O)[C@@H]1C[C@@H](Oc2nccc3cc(C(=O)C(F)(F)F)ccc23)CN1C(=O)[C@@H](NC(=O)OC(C)(C)C)C(C)(C)C)C(=O)NS(=O)(=O)C1CC1,Huh7,BMS,0.1–1 µM
CCCS(=O)(=O)N1CCN(Cc2ccc(NC(=O)c3ccc(-c4cc(NC(=O)C5CC5)ccc4OC(F)(F)F)cc3)cc2)CC1,-,1b,0.006 µM
C=CC[C@](C)(NC(=O)[C@H]1C[C@@H](Oc2nc(-c3nccs3)c(OC)c3ccccc23)CN1C(=O)[C@@H](NC(=O)OC(C)(C)C)C(C)(C)C)C(=O)NS(=O)(=O)C1CC1,Huh7,BMS,<0.1 µM
C=CC1CC1(NC(=O)[C@@H]1C[C@@H](OC(=O)N(C)C)CN1C(=O)[C@@H](NC(=O)OC(C)(C)C)C(C)(C)C)C(=O)NS(=O)(=O)C1CC1,Huh7,1b,>10 µM
C=CC[C@](C)(NC(=O)[C@H]1C[C@@H](Oc2nccc3c4c(c(SC)cc23)OCO4)CN1C(=O)[C@@H](NC(=O)OC(C)(C)C)C(C)(C)C)C(=O)NS(=O)(=O)C1CC1,Huh7,BMS,<0.1 µM
Nc1ncnc2c1c(-c1cc3ccccc3o1)cn2[C@@H]1O[C@H](CO)[C@@H](O)C1(F)F,HCV replicon,1a,1.1 µM

A second listing of 3 rows from above:

C=CC1CC1(NC(=O)[C@@H]1C[C@@H](OC(=O)N(C)C)CN1C(=O)[C@@H](NC(=O)OC(C)(C)C)C(C)(C)C)C(=O)NS(=O)(=O)C1CC1 ; cell line: Huh7 ; strain: 1b ; result: >10 µM
Nc1ncnc2c1c(-c1ccco1)cn2[C@@H]1O[C@H](CO)[C@@H](O)[C@H]1F ; cell line: HCV replicon ; strain: 1a ; result: 1.98 µM
C[C@@]1(F)[C@H](O)[C@@H](CO)O[C@@]1(CN)n1ccc(=O)[nH]c1=O ; cell line: Huh7 ; strain: 1a ; result: >89 µM

a–b is a range or a potency band. ECn: concentration that inhibits the pathogen or its effect by n%. Lines come from different laboratories, so protocols vary.